Laboratory results: patent US5047397A (California Biotechnology Inc., priority 1988, dated 1991)

Experiments:
Conditions in all cases: whole synthesis, reversed phase HPLC, scale of the general procedure One gm of resin (0.4 meq/gm), acetate salt
[1] = general procedure: Boc solid-phase peptide synthesis; Boc-Ala-pMBHA resin; N,N'-dicyclohexylcarbodiimide
[2] = general procedure: Boc solid-phase peptide synthesis; Boc-Ile-pMBHA resin; N,N'-dicyclohexylcarbodiimide
[3] = general procedure: Boc solid-phase peptide synthesis; Boc-Tyr(2BrZ)-O-Resin; N,N'-dicyclohexylcarbodiimide

Row | Substance | final HPLC purity [3] | other results
1 | PEPTIDE1{[2-NA].G.G.R.I.D.R.I.G.A.[am]}$$$$V2.0 | – | final HPLC purity [1]: minimum 97% purity
2 | PEPTIDE1{[2-NOA].[NH(CH2)4CO].R.I.D.R.I.[am]}$$$$V2.0 | – | final HPLC purity [2]: minimum 97% purity
3 | RSSCFGGRIDRIGAQSCNSFRY | minimum 97% purity | –
4 | R-S-S-C-F-G-G-R-I-D-R-I-G-A-Q-S-G-C--N-S-F-R-Y | minimum 97% purity | –
5 | RSSCGRIDRIGAQSGCNSFRY | minimum 97% purity | –

The same purity stands for every peptide and may come from a single statement. For some assays here: Strings that start with PEPTIDE1 are HELM notation: dots part the residues, brackets hold end groups and non-standard residues.
